According to article PMC8561388 (mBio, 2021):

Test system: OP^neon/F-[…]
Experiment: Inhibition of compound 3-escape mutant virus
Settings: Vero-cSLAM cells

| Structure (SMILES) | sensitivity of compound 3-escape mutant virus |
| --- | --- |
| N#Cc1cccc(NC(=O)Cc2ccccc2)c1 [compound 3, reference compound] | successfully escaped |
| CC1(C)Cc2cccc(OCC(=O)Nc3nc4ccccc4s3)c2O1 [compound 1] | highly sensitive |
